Anti-infective test results gathered from many reports (values: NIAID ChemDB through PubChem).

Common to all: growth or infection tests; organism: HIV-1

ECn: concentration that inhibits the pathogen or its effect by n%. Rows are shuffled and stem from different studies. Two numbers with a dash give a range or band. An empty or dashed field is not shown.

SMILES,strain or isolate,conditions,cells,changes,endpoint,method,result
Nc1nc(NC2CC2)c2ncn([C@H]3C=C[C@@H](CO)C3)c2n1,Clinical isolate,-,MT-2,D67N/T69N/K70R/A98G/M184V/G190S/T215F/K219Q,EC50,recombinant virus assay,0.4488 µM
O=C1c2c(O)c(=O)n(C(C3CC3)C3CC3)c(=O)n2CCN1Cc1ccc(F)cc1,-,-,MT-4,-,EC95,p24,<10 µM
CCc1c(Cc2ccccc2C)n(COCC#Cc2cccc3ccccc23)c(=O)[nH]c1=O,IIIB,-,MT-4,EFV-resistant (K103R V179D P225H),EC50,MTT,>34 µM
CC(C)CN(C[C@@H](O)[C@H](Cc1ccccc1)NC(=O)O[C@H]1CCOC1)S(=O)(=O)c1ccc(N)cc1,T13572,-,MT-4,V32I L76V V82I,EC50,reporter gene,4816 nM
CC[C@H]1COC[C@@H](N(C)C(=O)C(=O)N(C)C)c2nc(C(=O)NCc3ccc(F)cc3)c(O)c(=O)n21,-,-,HeLa P4-2,Y143R,EC50,single cycle,0.001 µM
CC(C)C1=C2[C@H]3CC[C@@H]4[C@@]5(C)CC[C@H](OC(=O)CC(C)(C)C(=O)O)C(C)(C)[C@@H]5CC[C@@]4(C)[C@]3(C)CC[C@@]2(NC(=O)Nc2ccccc2)CC1=O,IIIB,30% human serum,MT-2,-,EC50,RT activity,<0.199 µM
CCCc1cc(=O)oc2c3c(c4c(c12)OC(C)(C)CC4)O[C@H](C)[C@@H](C)C3=O,-,-,-,RT-K101E,EC50,cytopathic effect / XTT,26.4 µM
Cc1ccc(OCCOc2ccc(-c3cnc(C)c([C@H](OC(C)(C)C)C(=O)O)c3N3CCC(C)(C)CC3)nc2)c(Cl)c1,NL4-3,-,MT-2,-,EC50,luminescence,0.0004 µM
Cc1nc2ccccc2c(-c2cc(F)c3c(c2C)CCCO3)c1[C@H](OC(C)(C)C)C(=O)O,NL4-3,-,MT-4,N155H,EC50,luminescence,0.016 µM
COc1cccc2[nH]cc(C(=O)C(=O)N3CCN(C(=O)c4cccc(NC(=O)OC(C)(C)C)c4)C[C@H]3C)c12,-,-,HeLa + HELA CD4+/CCR5,-,EC50,luciferase,<10 µM
CCC(C)[C@@H](C(=O)N[C@@H](Cc1ccccc1)[C@H](O)CN(CC(C)C)S(=O)(=O)c1ccc(/C=N/O)cc1)N1CCN(Cc2ccc(C)nc2)C1=O,A17 (LPV-resistant),-,MT-4,PR-L10F V32I M46I I47V Q68E I84V,EC50,cytopathic effect / MTT,0.013 µM
Cc1ncc(-c2ccc(N(C)CCOc3ccc(Cl)cc3)nc2)c(N2CCC(C)(C)CC2)c1[C@H](OC(C)(C)C)C(=O)O,NL4-3,-,MT-2,-,EC50,luminescence,0.004 µM
CC(C)CN(C[C@@H](O)[C@H](Cc1ccccc1)NC(=O)[C@H](C(C)C)N1CC(=O)N(Cc2ccncc2)C1=O)S(=O)(=O)c1ccc(/C=N/O)cc1,-,-,MT-4,-,EC50,cytopathic effect / MTT,0.016 µM
O=C1c2c(O)c(=O)n(CC(F)(F)F)c(=O)n2CCN1Cc1ccc(F)cc1,-,-,MT-4,-,EC95,p24,<10 µM
C[C@@H]1CN(C(=O)c2ccccn2)CCN1C(=O)C(=O)c1c[nH]c2cc(Cl)ccc12,-,-,HeLa + HELA CD4+/CCR5,-,EC50,luciferase,<10 µM
CCC(C)[C@@H](C(=O)N[C@@H](Cc1ccccc1)[C@H](O)CN(CC(C)C)S(=O)(=O)c1ccc(/C=N/O)cc1)N1CCN(Cc2cccc(C(C)C)n2)C1=O,A17 (LPV-resistant),-,MT-4,PR-L10F V32I M46I I47V Q68E I84V,EC50,cytopathic effect / MTT,0.005 µM
COc1cc(-c2ccc(N=Nc3ccc4c(S(=O)(=O)O)cc(S(=O)(=O)O)c(N)c4c3O)c(OC)c2)ccc1N=Nc1ccc2c(S(=O)(=O)O)cc(S(=O)(=O)O)c(N)c2c1O,SKI,-,CEM + CEM-SS,-,EC50,RT activity,1.8 µM
Cc1cc(C#N)cc(C(=O)c2cc(Cl)ccc2OCC(=O)Nc2ccc(S(N)(=O)=O)nc2C)c1,HXB2,-,HeLa + HELA CD4+,RT-V108I,EC50,β-galactosidase,<0.01 µM
CCN(C(=O)C(=O)N(C)C)[C@H]1CC[C@H](OC)Cn2c1nc(C(=O)NCc1ccc(F)cc1)c(O)c2=O,-,-,HeLa P4-2,Q148R,EC50,single cycle,>0.1 µM
N#Cc1cc(Cl)cc(Oc2c(Br)ccc(CC(=O)Nc3ccc(S(N)(=O)=O)cc3Cl)c2F)c1,-,-,MT-4,L100I/K103N,EC50,-,0.0009 µM
Cc1cncc(C(=O)N[C@@]23CC[C@]4(C)[C@H](CC[C@@H]5[C@@]6(C)CC[C@H](OC(=O)CC(C)(C)C(=O)O)C(C)(C)[C@@H]6CC[C@]54C)C2=C(C(C)C)C(=O)C3)c1,IIIB,30% human serum,MT-2,-,EC50,RT activity,<0.199 µM
CCN1c2ncc(CCOc3ccc(-n4ccnc4)cc3C)cc2C(=O)N(C)c2cccnc21,-,-,C8166,RT-K103N Y181C,EC50,p24,<0.01 µM
CCc1cc(C#N)cc(C(=O)c2cc(Cl)ccc2OCC(=O)Nc2ccc(S(N)(=O)=O)cc2C)c1,HXB2,-,HeLa + HELA CD4+,RT-G190A,EC50,β-galactosidase,<0.01 µM
COc1ccc(Cl)c2[nH]cc(C(=O)C(=O)N3CCN(C(=O)c4ccccc4)CC3)c12,-,-,HeLa + HELA CD4+/CCR5,-,EC50,luciferase,<10 µM
Cc1cc(S(N)(=O)=O)ccc1NC(=O)COc1ccc(Cl)cc1C(=O)c1cc(F)cc(F)c1,HXB2,-,HeLa + HELA CD4+,RT-K103N,EC50,β-galactosidase,<0.01 µM
COc1ccc(S(=O)(=O)N(CC(C)C)C[C@@H](O)[C@H](Cc2ccccc2)NC(=O)[C@H](C(C)C)N2CC(=O)N(Cc3csc(C)n3)C2=O)cc1,A17 (LPV-resistant),-,MT-4,PR-L10F V32I M46I I47V Q68E I84V,EC50,cytopathic effect / MTT,0.075 µM
COc1cccc2[nH]cc(C(=O)C(=O)N3CCN(C(=O)c4ccccc4)C[C@H]3C)c12,-,-,HeLa + HELA CD4+/CCR5,-,EC50,luciferase,<10 µM
CCC(F)COc1ccc(-c2cnc(C)c([C@H](OC(C)(C)C)C(=O)O)c2N2CCC(C)(C)CC2)nc1,NL4-3,-,MT-2,-,EC50,luminescence,0.0043 µM
Cc1cc(OCCCS(N)(=O)=O)ccc1NC(=O)COc1ccc(Cl)cc1C(=O)c1cc(F)cc(C(F)(F)F)c1,HXB2,-,HeLa + HELA CD4+,RT-K103N L100I,EC50,β-galactosidase,<0.01 µM
CCN1c2ncc(CCOc3ccc(S(=O)(=O)c4ccncc4)cc3C)cc2C(=O)N(C)c2cccnc21,-,-,C8166,RT-K103N Y181C,EC50,p24,<0.01 µM
CC(C)C1=C2C3CCC4[C@@]5(C)CC[C@H](OC(=O)CC(C)(C)C(=O)O)C(C)(C)C5CC[C@@]4(C)[C@]3(C)CC[C@@]2(NC(=O)C(=O)N(C)C)CC1=O,IIIB,30% human serum,MT-2,-,EC50,RT activity,<0.199 µM
CC1(C)CC=C(c2cn(-c3nccc(C(=O)NC4CCC(N5CC6CCC(C5)O6)CC4)n3)c3ccc(F)c([C@H](OC(C)(C)C)C(=O)O)c23)CC1,NL4-3,-,MT-4,T124S,EC50,luminescence,0.0038 µM
COc1ccc(Cl)c2[nH]cc(C(=O)C(=O)N3CCN(C(=O)c4ccccn4)C[C@H]3C)c12,-,-,HeLa + HELA CD4+/CCR5,-,EC50,luciferase,<10 µM
CCc1c(Cc2cc(C)cc(C)c2)n(COCC#Cc2ccc([N+](=O)[O-])cc2)c(=O)[nH]c1=O,IIIB,-,MT-4,Y181C,EC50,MTT,>7 µM
Cc1cc2cn[nH]c2cc1NC(=O)COc1ccc(Cl)cc1C(=O)c1cccc(C#N)c1,HXB2 (RT-K103N G190A) Recombinant,-,HeLa + HELA CD4+,RT-K103N G190A,EC50,β-galactosidase,0.011–0.1 µM
CCc1c(Cc2cc(C)cc(C)c2)n(COCC#Cc2cnccn2)c(=O)[nH]c1=O,IIIB,-,MT-4,Y181C,EC50,MTT,11 µM
C#C[C@@]1(CO)C=C[C@H](n2cc(C)c(=O)[nH]c2=O)O1,Clinical isolate,-,MT-2,T69ins/K70R/M184V/K219Q,EC50,recombinant virus assay,>46.2 µM
CO[C@]1(C)CC[C@@H](N(C)C(=O)C(=O)N(C)C)c2nc(C(=O)NCc3ccc(F)c(C)c3)c(O)c(=O)n2C1,-,-,HeLa P4-2,G140S/Q148H,EC50,single cycle,0.01 µM
O=C1c2c(O)c(=O)n(C3CCCCCC3)c(=O)n2CCN1Cc1ccc(F)cc1,-,-,MT-4,-,EC95,p24,<10 µM
CCN1c2ncc(CCOc3ccc(-c4ccc(C(=O)O)cc4)cc3F)cc2C(=O)N(C)c2cccnc21,-,-,C8166,RT-K103N Y181C,EC50,p24,>0.05 µM
C=CCn1cc(COCn2c(Cc3cc(C)cc(C)c3)c(CC)c(=O)[nH]c2=O)nn1,IIIB,-,MT-4,EFV-resistant (K103R V179D P225H),EC50,MTT,6 µM
Cc1ncc(-c2ccc(OCCOCc3ccccc3)cn2)c(N2CCC(C)(C)CC2)c1[C@H](OC(C)(C)C)C(=O)O,NL4-3,-,MT-2,-,EC50,luminescence,0.0011 µM
Cc1cc(S(N)(=O)=O)ccc1NC(=O)COc1ccc(Cl)cc1C(=O)c1cccc(C#N)c1,HXB2,-,HeLa + HELA CD4+,RT-E138K,EC50,β-galactosidase,<0.01 µM
CC(C)n1c(=O)c(O)c2n(c1=O)C(CCN(C)Cc1ccccc1)CN(Cc1ccc(F)cc1)C2=O,-,-,MT-4,-,EC95,p24,<10 µM
C=C(C)CCOc1ncc(-c2cnc(C)c([C@H](OC(C)(C)C)C(=O)O)c2N2CCC(C)(C)CC2)cc1F,NL4-3,-,MT-2,-,EC50,luminescence,0.0025 µM
CC(C)C1=C2[C@H]3CC[C@@H]4[C@@]5(C)CC[C@H](OC(=O)CC(C)(C)C(=O)O)C(C)(C)[C@@H]5CC[C@@]4(C)[C@]3(C)CC[C@@]2(NC(=O)c2cccc(F)c2)CC1=O,IIIB,30% human serum,MT-2,-,EC50,RT activity,<0.199 µM
Cc1cc(C#N)cc(C(=O)c2cc(Cl)ccc2OCC(=O)Nc2ccc(OCCCN3CC=CC3)cc2C)c1,HXB2,-,HeLa + HELA CD4+,RT-Y181C,EC50,β-galactosidase,<0.01 µM
Cc1cc(CNC(=O)c2nc3n(c(=O)c2O)CC(C)(C)CC[C@@H]3N(C)C(=O)C(=O)N(C)C)ccc1F,-,-,HeLa P4-2,G140S/Q148H,EC50,single cycle,0.034 µM
CC(C)C1=C2[C@H]3CC[C@@H]4[C@@]5(C)CC[C@H](OC(=O)CC(C)(C)C(=O)O)C(C)(C)[C@@H]5CC[C@@]4(C)[C@]3(C)CC[C@@]2(NC(=O)NC2CN(C(=O)OC(C)(C)C)C2)CC1=O,IIIB,30% human serum,MT-2,-,EC50,RT activity,<0.199 µM
Cc1cc(S(N)(=O)=O)ccc1NC(=O)COc1ccc(Cl)cc1C(=O)c1cc(F)cc(C(F)(F)F)c1,HXB2,-,HeLa + HELA CD4+,RT-P225H,EC50,β-galactosidase,<0.01 µM
CC(C)C1=C2C3CCC4[C@@]5(C)CC[C@H](OC(=O)CC(C)(C)C(=O)O)C(C)(C)C5CC[C@@]4(C)[C@]3(C)CC[C@@]2(NC(=O)NC(C)(C)C2CCCCC2)CC1=O,IIIB,30% human serum,MT-2,-,EC50,RT activity,>1 µM
COc1cccc2[nH]cc(C(=O)C(=O)N3CCN(C(=O)c4cccc(N)c4)C[C@H]3C)c12,-,-,HeLa + HELA CD4+/CCR5,-,EC50,luciferase,<10 µM
CCC(C)[C@@H](C(=O)N[C@@H](Cc1ccccc1)[C@H](O)CN(CC(C)C)S(=O)(=O)c1ccc(/C=N/O)cc1)N1CCN(Cc2c(C)ccnc2C)C1=O,-,-,MT-4,-,EC50,cytopathic effect / MTT,0.003 µM
Cc1cc(-c2ccc[n+]([O-])c2)ccc1OCCc1cnc2c(c1)C(=O)Nc1c(C)ccnc1N2C1CC1,-,-,C8166,RT-K103N Y181C,EC50,p24,0.01–0.05 µM
Cc1cc(S(N)(=O)=O)ccc1NC(=O)COc1ccc(Cl)cc1C(=O)c1cc(F)cc(C#N)c1,HXB2 (RT-K103N G190A) Recombinant,-,HeLa + HELA CD4+,RT-K103N G190A,EC50,β-galactosidase,0.011–0.1 µM
Cc1ccc(-c2ccc(NC(=O)N3CCC4(CCO4)CC3)cc2)cc1,CNE8,pseudotyped,TZM-bl,-,EC50,luminescence,>30 µM
CC(C)C1=C2C3CCC4[C@@]5(C)CC[C@H](OC(=O)CC(C)(C)C(=O)O)C(C)(C)C5CC[C@@]4(C)[C@]3(C)CC[C@@]2(NC(=O)N[C@@H](C)C2CCCCC2)CC1=O,IIIB,30% human serum,MT-2,-,EC50,RT activity,<0.199 µM
CCc1c(Cc2cc(C)cc(C)c2)n(COCC#Cc2cccc(C=O)c2)c(=O)[nH]c1=O,IIIB,-,MT-4,EFV-resistant (K103R V179D P225H),EC50,MTT,13 µM
COC(=O)C1=CN(C(=O)C(=O)c2c[nH]c3c(C(=O)OC)cccc23)CCN1C(=O)c1ccccc1,-,-,HeLa + HELA CD4+/CCR5,-,EC50,luciferase,<10 µM
COC[C@@H](c1ccc(C(F)(F)F)cc1)N1CCN(C2(C)CCN(C(=O)c3c(C)ncnc3C)CC2)C[C@@H]1C,R14/S,-,TZM-bl,M518V F519L,EC50,-,0.001 µM
CCc1c(Cc2cc(C)cc(C)c2)n(COCC#Cc2cccs2)c(=O)[nH]c1=O,IIIB,-,MT-4,WT,EC50,MTT,0.008 µM

The last 5 rows once more:

SMILES	strain or isolate	conditions	cells	changes	endpoint	method	result
CC(C)C1=C2C3CCC4[C@@]5(C)CC[C@H](OC(=O)CC(C)(C)C(=O)O)C(C)(C)C5CC[C@@]4(C)[C@]3(C)CC[C@@]2(NC(=O)N[C@@H](C)C2CCCCC2)CC1=O	IIIB	30% human serum	MT-2	-	EC50	RT activity	<0.199 µM
CCc1c(Cc2cc(C)cc(C)c2)n(COCC#Cc2cccc(C=O)c2)c(=O)[nH]c1=O	IIIB	-	MT-4	EFV-resistant (K103R V179D P225H)	EC50	MTT	13 µM
COC(=O)C1=CN(C(=O)C(=O)c2c[nH]c3c(C(=O)OC)cccc23)CCN1C(=O)c1ccccc1	-	-	HeLa + HELA CD4+/CCR5	-	EC50	luciferase	<10 µM
COC[C@@H](c1ccc(C(F)(F)F)cc1)N1CCN(C2(C)CCN(C(=O)c3c(C)ncnc3C)CC2)C[C@@H]1C	R14/S	-	TZM-bl	M518V F519L	EC50	-	0.001 µM
CCc1c(Cc2cc(C)cc(C)c2)n(COCC#Cc2cccs2)c(=O)[nH]c1=O	IIIB	-	MT-4	WT	EC50	MTT	0.008 µM